# Experimental data published in article PMC10447463, “Data-mining unveils structure–property–activity correlation of viral infectivity enhancing self-assembling peptides” (Nature Communications, 2023).
# System: HIV-1 infection of TZM-bl cells
# Test: HIV-1 infectivity enhancement assay, β-galactosidase luminescence
# Type: cell-based
sequence,measurement,setting,value
QCKAKAQANM [CK23],n-fold to virus (Feb2021),"Feb2021, 1.3 µM value relative to virus only (0 µM)",0.6145
same,Log10 of Rel to EFC (Feb2021),"Feb2021, Log10 of infectivity relative to EF-C",-1.835
same,Absolute Infectivity / RLU /s (Feb2021),"Feb2021, figures match the 1.3 µM column",563.3 RLU /s
same,n-fold to virus (Feb2021),"Feb2021, infectivity relative to virus only",0.6145
same,Log10 of Rel to EFC (Feb2021),"Feb2021, log10 of infectivity relative to EF-C",-1.835
same,Rel-to EFC (Feb-2021),"Feb2021, n-fold enhancement relative to EF-C",0.01463
same,Rel-to EFC (Feb-2021),"Feb2021, n-fold infectivity relative to EF-C",0.01463
same,Absolute Infectivity / RLU /s (Feb2021),"Feb2021, unrounded values of the 1.3 µM column",563.3 RLU /s
same,n-fold to virus (Feb2021),"Feb2021 run, infectivity n-fold relative to virus alone",0.6145
same,Log10 of Rel to EFC (Feb2021),"Feb2021 run, log10 of infectivity relative to EF-C",-1.835
same,Rel-to EFC (Feb-2021),"Feb2021 run, n-fold infectivity relative to EF-C",0.01463
same,infectivity,"infectivity class (low / medium / high) of each library peptide, main list in c1-c6, same classes repeated in sub-lists of sequences containing the hydrophobicity/charge patterns P+,H0,P+,H0,P0,H0,P0, P+,H0,P0,H0,P0,H0,P0, P+,H0,P0,H0",low
same,Log10 Inf. rel. to EF-C,"log10 of HIV-1 infection of TZM-bl cells relative to EF-C, Fig S15 source data, asymmetric std dev errors",-1.835
QCKAKAQANM,Log10 Inf. rel. to EF-C,log10 of HIV-1 infection of TZM-bl cells relative to EF-C (EF-C = 0),-1.835
